Data as given in PubChem BioAssay AID624099 (ICCB-Longwood, 2012).

Screen: 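Knock-downs relieving repression by E2 of an HPV18 LCR luciferase reporter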 (primary screen)
System: human C33A cervical carcinoma cells (HPV-negative) stably expressing BPV1 E2 and an HPV18 LCR luciferase reporter
Reagent: siRNA pool against human genes, 40 nM
Duration: 72 h
Detection: 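Per-well luciferase luminescence, z-scored on each plate against the plate mean and SD with control wells left out, then averaged across three replicate plates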
Reading the numbers: mean z-score and z-score: higher = stronger reporter signal, weaker E2 silencing
Rule for the call: 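Mean z ≥ 2 together with z ≥ 2 in two or more of the three replicates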
Shown is a random part of about 21,000 deposited reagents. 497 of all reagents (2.4%) were called active. 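Higher z means weaker E2 silencing; only reporter increases were scored, and knock-downs that hurt cell survival may mask genuine repressor factors.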 The numbers tell different reagents against one gene apart.

gene	reagent no.	mean z-score	z-score, replicate A	z-score, replicate B	z-score, replicate C	Call
TRIML2 (tripartite motif family like 2)	1	0.07	0.29	-0.16		inactive
PGAP3 (post-GPI attachment to proteins phospholipase 3)	1	-0.39	-0.63	-0.23	-0.33	inactive
FSCN1 (fascin actin-bundling protein 1)	1	0.19	0.47	-0.04	0.14	inactive
CDK12 (cyclin dependent kinase 12)	1	0.25	0.63	0.22	-0.1	inactive
FAM184B (family with sequence similarity 184 member B)	1	1.12	1.66	0.95	0.74	inactive
LOC149329 (retired record)	1	0.26	-0.08	0.64	0.22	inactive
C1RL (complement C1r subcomponent like)	1	-0.73	-0.51	-1.17	-0.49	inactive
SPTAN1 (spectrin alpha, non-erythrocytic 1)	1	0.06	0.36	-0.02	-0.15	inactive
RIPPLY2 (ripply transcriptional repressor 2)	1	0.56	0.22	0.88	0.57	inactive
ELN (elastin)	1	1.78	1.65	1.82	1.88	inactive
ZNF512B (zinc finger protein 512B)	1	-1.12	-1.01	-1.14	-1.21	inactive
BNIP3L (BCL2 interacting protein 3 like)	1	-0.6	-0.49	-0.59	-0.72	inactive
TRIM73 (tripartite motif containing 73)	1	0.38	0.5	0.17	0.48	inactive
TRIM73 (tripartite motif containing 73)	2	-1.29	-1.32	-1.31	-1.25	inactive
MAP3K6 (mitogen-activated protein kinase kinase kinase 6)	1	0.36	0.19	0.34	0.54	inactive
PIGT (phosphatidylinositol glycan anchor biosynthesis class T)	1	-0.01	-0.16	0.1	0.02	inactive
BFSP1 (beaded filament structural protein 1)	1	-0.46	-0.28	-0.63	-0.46	inactive
TMEM62 (transmembrane protein 62)	1	-0.22	-0.33	-0.25	-0.07	inactive
ZDHHC9 (zDHHC palmitoyltransferase 9)	1	-0.39	-0.42	-0.31	-0.44	inactive
RAD17 (RAD17 checkpoint clamp loader component)	1	-0.97	-1.17	-1.1	-0.64	inactive
SLC12A4	1	0.43	0.38	0.45	0.44	inactive
CCT8L1P (chaperonin containing TCP1 subunit 8 like 1, pseudogene)	1	-1.24	-1.4	-1.3	-1.04	inactive
CCT8L1P (chaperonin containing TCP1 subunit 8 like 1, pseudogene)	2	-0.85	-1.01	-0.55	-0.99	inactive

In a second layout: entries from further up.
TMEM62 (transmembrane protein 62)
- mean z-score: -0.22
- z-score, replicate A: -0.33
- z-score, replicate B: -0.25
- z-score, replicate C: -0.07
- Call: inactive

ZDHHC9 (zDHHC palmitoyltransferase 9)
- mean z-score: -0.39
- z-score, replicate A: -0.42
- z-score, replicate B: -0.31
- z-score, replicate C: -0.44
- Call: inactive

RAD17 (RAD17 checkpoint clamp loader component)
- mean z-score: -0.97
- z-score, replicate A: -1.17
- z-score, replicate B: -1.1
- z-score, replicate C: -0.64
- Call: inactive
